{"source": "paper PMC7026589", "about": "“Sensitive CometChip assay for screening potentially carcinogenic DNA adducts by trapping DNA repair intermediates” (Nucleic Acids Research, 2019)", "key": {"[1]": {"tested_on": "primary mouse hepatocytes"}, "[2]": {"tested_on": "Xpa−/− mouse hepatocytes"}}}
{"substance": "Aflatoxin B1 [AFB1]", "values": [{"measurement": "SSBs", "setting": "[1]", "value": "induces SSBs that are detectable"}, {"measurement": "SSBs", "setting": "[2]", "value": "greatly reduced"}]}
